From article PMC7277541, “Antimicrobial and Antifungal Activities of Terpene-Derived Palladium Complexes” (Antibiotics, 2020)

Assays:
[1] = tested on: C. neoformans var. grubii H99 ATCC 208821; assay: Antifungal MIC assay, C. neoformans; assay type: cell-based, Cryptococcus neoformans; settings: for Selectivity Index (SI) C. neoformans CC50/MIC: CC50 against HEK293 divided by MIC C. neoformans var grubii H99 ATCC 208821; for Selectivity Index (SI) C. neoformans HC10/MIC: HC10 human red blood cells divided by MIC C. neoformans var grubii H99 ATCC 208821
Description: Screening against bacteria and yeasts for antimicrobial activity and toxicity against mammalian cells was performed in duplicate (n = 2). […] Becton Dickinson 242720) agar at 30 °C. A yeast suspension of 1 × 10^6 to 5 × 10^6 CFU/mL (as determined by OD530) was prepared from five colonies form the agar plates, and subsequently diluted with Yeast Nitrogen Base media (YNB; Becton Dickinson 233520), and added to each well of the compound containing plates (384-well plates, NBS; […] Plates were covered and incubated at 35 °C for 36 h without shaking. […] Fluconazole (Sigma Aldrich, F8929) was used as a positive inhibitor control on each plate for both strains.

[2] = tested on: S. aureus (MRSA) ATCC 43300; assay: Antibacterial MIC assay, S. aureus (MRSA); assay type: cell-based, Staphylococcus aureus; settings: for Selectivity Index (SI) S. aureus (MRSA) CC50/MIC: CC50 against HEK293 divided by MIC S. aureus ATCC 43300; for Selectivity Index (SI) S. aureus (MRSA) HC10/MIC: HC10 human red blood cells divided by MIC S. aureus ATCC 43300
Description: Dry compounds were dissolved in dimethyl sulfoxide (DMSO), and serially diluted 2-fold to produce an 8-point dose response with DMSO/water and then added into microtiter plates with a final DMSO concentration of 0.5%, providing a concentration range of 0.25 to 32 μg/mL. Screening against bacteria and yeasts for antimicrobial activity and toxicity against mammalian cells was performed in duplicate (n = 2).
For the bacterial assays, each bacterial strain was cultured in Cation-Adjusted Mueller Hinton Broth (CAMHB; Bacto Laboratories 212322) at 37 °C overnight. Bacterial strains tested were methicillin resistant S. aureus (methicillin-resistant Staphylococcus aureus - MRSA) ATCC 43300, E. coli ATCC 25922, K. pneumoniae K6/ESBL ATCC 700603, P. aeruginosa ATCC 27853, A. baumannii ATCC 19606. A sample of each culture was then diluted 40-fold in fresh CAMHB and incubated at 37 °C for 1.5–3 h. The resultant mid-log phase cultures were diluted with CAMHB (CFU/mL measured by OD600), then added to each well of the compound-containing plates (384-well non-binding surface (NBS) plates; Corning CLS3640), giving a final cell density of 5 × 10^5 CFU/mL and a total volume of 50 μL. Plates were covered and incubated at 37 °C for 18 h without shaking. Inhibition of bacterial growth was determined by measuring absorbance at 600 nm (OD600), using media only as negative control and bacteria without inhibitors as positive control. MIC values were determined as the lowest concentration at which the growth was inhibited by ≥ 80% (equivalent to no visible growth by eye). Colistin sulfate (Sigma Aldrich, Castle Hill, Australia C4461) and vancomycin HCl (Sigma Aldrich, 861987) were used as positive inhibitor controls on each plate for Gram-negative and Gram-positive bacteria, respectively.

Row | Compound | Selectivity Index (SI) C. neoformans CC50/MIC [1] | Selectivity Index (SI) C. neoformans HC10/MIC [1] | Selectivity Index (SI) S. aureus (MRSA) CC50/MIC [2] | Selectivity Index (SI) S. aureus (MRSA) HC10/MIC [2]
1 | CC12CCC(C(=NC(c3ccccc3)c3cccc[c]3[Pd][Cl])C1=O)C2(C)C.CC12CCC(C(=NC(c3ccccc3)c3cccc[c]3[Pd][Cl])C1=O)C2(C)C (stereo not drawn) [Compound 3] | 12.0 | >64 | 0.4 | >2
2 | C[C@H](N[C@@H]1C[C@H]2C[C@H](C2(C)C)[C@@]1(C)O)c1cccc[c]1[Pd][Cl].C[C@H](N[C@@H]1C[C@H]2C[C@H](C2(C)C)[C@@]1(C)O)c1cccc[c]1[Pd][Cl] [Compound 4] | > 50 and >66.4 | >22.4 | 0.5 | 0.2
3 | CC(C)(C)c1cc(C=NCCN=C2C[C@H]3C[C@H](C3(C)C)[C@@]2(C)O)c([O][Pd][Cl])c(C(C)(C)C)c1 [Compound 6] | 1–2 and 1.1 | 1–2 and 2.0 | 0.6 | ~ 1 and 1.0
4 | CC12CCC(CC1=NCCN=Cc1ccccc1[O][Pd][Cl])C2(C)C (stereo not drawn) [Compound 7] | > 8 | > 8 | – | –
5 | CC1(C)[C@H]2CC(=NCCN)[C@](C)(O)[C@@H]1C2.[Cl][Pd][Cl] [Compound 8] | > 8 | 1.7 | – | ≤0.2
6 | CN(C)CCN=C1C[C@H]2C[C@H](C2(C)C)[C@@]1(C)O.[Cl][Pd][Cl] [Compound 9] | > 16 | >16 | – | –
7 | CC1(C)[C@@H]2C[C@H]1[C@@](C)(O)[C@H](NCCN[C@@H]1C[C@H]3C[C@H](C3(C)C)[C@@]1(C)O)C2.[Cl][Pd][Cl] [Compound 10] | > 8 | 1.2 | – | ≤0.1
8 | CN(C)CCN=CC1=CCC2CC1C2(C)C.[Cl][Pd][Cl] (stereo not drawn) [Compound 11] | > 43.2 | >128 | ≤0.3 | –
9 | CN(C)CCNCC1=CCC2CC1C2(C)C.[Cl][Pd][Cl] (stereo not drawn) [Compound 12] | > 128 | > 128 | – | –

Where “and” joins values, the source holds several entries; their conditions need not be identical. Equal entries are not always repeated.
